Laboratory results: PubChem BioAssay AID624414 (National Center for Advancing Translational Sciences (NCATS), 2012)
This is a selection; strong and weak results do not stand in their true shares. Some salts and complexes are drawn in separate pieces, as the source files them; their charges need not balance. The source made the active and inactive calls. Cut-off read from the data, not from the text of the source: active = activation above about 50%; inconclusive = mostly about 30% to 49%; inactive = weaker than that.

Protein sequences, listed by entry. Tags and fused reporters are not part of them.
UniProt Q9GZU1, whole entry: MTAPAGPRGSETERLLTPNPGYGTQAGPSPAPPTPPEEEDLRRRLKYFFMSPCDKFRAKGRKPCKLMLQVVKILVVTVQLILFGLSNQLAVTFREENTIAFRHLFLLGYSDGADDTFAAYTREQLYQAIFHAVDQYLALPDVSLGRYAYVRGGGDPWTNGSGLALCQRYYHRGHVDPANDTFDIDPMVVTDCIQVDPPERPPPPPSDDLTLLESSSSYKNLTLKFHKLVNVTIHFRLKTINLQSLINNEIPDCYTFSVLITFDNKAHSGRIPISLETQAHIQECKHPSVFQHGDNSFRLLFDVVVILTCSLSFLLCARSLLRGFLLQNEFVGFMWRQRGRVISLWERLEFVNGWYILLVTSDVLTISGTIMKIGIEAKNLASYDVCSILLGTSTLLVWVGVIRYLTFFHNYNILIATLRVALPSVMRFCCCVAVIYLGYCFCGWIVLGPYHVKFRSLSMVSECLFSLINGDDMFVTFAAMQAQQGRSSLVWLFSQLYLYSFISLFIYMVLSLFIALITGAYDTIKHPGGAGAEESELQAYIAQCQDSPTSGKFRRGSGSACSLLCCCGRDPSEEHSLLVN

The compounds below were run against Mucolipin-1 (Homo sapiens) (UniProt Q9GZU1) (assay: qHTS for Agonists of the Human Mucolipin Transient Receptor Potential 1 (TRPML1)). Settings: TRPML1-expressing cells, Ca2+ dye fluorescence, FDSS; stronger effect = higher value.
Procedure, shortened: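 Tetracycline-induced TRPML1-DL cells are seeded and incubated overnight before loading with a no-wash Ca2+ dye and quencher. Agonist activity is taken from the 110 s fluorescence read following compound pin-transfer on an FDSS, before EC80 54-4 challenge.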
Note: 0% is about no effect.

Compound	activation
CCOc1ncccc1C(=O)NCC1(N2CCOCC2)CCCCC1	inactive: -0.503%
COc1ccc(Cl)cc1C(=O)NCC1(N2CCOCC2)CCCCC1	inactive: 21.4%
O=C1C(O)=C([N+](=O)[O-])C(=O)C(O)=C1[N+](=O)[O-]	inactive: -0.419%
N#CC1(Nc2ccccc2)CCN(Cc2ccccc2)CC1	inactive: 0.203%
O=C(NCC1(N2CCCCC2)CCCCC1)c1ccc(Cl)s1	inactive: 1.2%
O=c1[nH]c2ccccc2n1C1CCN(C(c2cc3ccccc3o2)c2nnnn2C2CCCCC2)CC1 (stereo not drawn)	inactive: -0.298%
O=C(OC1CN2CCC1CC2)C1c2ccccc2Oc2ccccc21 (stereo not drawn)	inactive: -0.503%
CCCCn1nnnc1C(c1ccc(OC)cc1)N1CCC(n2c(=O)[nH]c3ccccc32)CC1 (stereo not drawn)	inactive: -0.158%
CCOC(=O)N1CCC(Nc2ccc(OC)cc2)CC1	inactive: 0.689%
Cc1cc(C)cc(N(C(=O)c2ccccc2)C2CCN(C(=O)OC(C)(C)C)CC2)c1	inactive: 0.0844%
O=C(NCC1(N2CCCCC2)CCCCC1)c1ccc(Cl)nc1	inactive: -0.525%
O=c1[nH]c2ccccc2n1C1CCN(C(c2ccccc2OC(F)(F)F)c2nnnn2C2CCCCC2)CC1 (stereo not drawn)	inactive: 2.19%
O=C(NCC1(N2CCOCC2)CCCCC1)c1cc2ccccc2o1	inactive: -0.618%
Cc1cccc(NC2(C#N)CCN(Cc3ccccc3)CC2)c1	inactive: 0.54%
CSc1ccccc1C(=O)NCC1(N2CCCCC2)CCCCC1	inactive: -0.111%
COc1ccc(C(=O)NCC2(N3CCCCC3)CCCCC2)c(OC)c1OC	inactive: 0.218%
CC(C)(C)OC(=O)N1CCC(N(C(=O)c2ccccc2)c2ccc(F)cc2)CC1	inactive: 1.93%
CCC(c1nnnn1C1CCCC1)N1CCC(n2c(=O)[nH]c3ccccc32)CC1 (stereo not drawn)	inactive: 0.569%
COc1ccc(C(=O)NCC2(N3CCCCC3)CCCCC2)cc1	inactive: -0.458%
CCCCn1nnnc1C(CC)N1CCC(n2c(=O)[nH]c3ccccc32)CC1 (stereo not drawn)	inactive: -0.541%
O=C(NCC1(N2CCCCC2)CCCCC1)c1cccs1	inactive: 0.729%
CCCCn1nnnc1C(c1cccs1)N1CCC(n2c(=O)[nH]c3ccccc32)CC1 (stereo not drawn)	inactive: -0.221%
O=C(NCC1(N2CCCCC2)CCCCC1)c1ccc(=O)[nH]c1	inactive: -0.361%
CCOC(=O)N1CCC(Nc2cccc(C)c2)CC1	inactive: 1.36%
COc1cc(C(=O)NCC2(N(C)C)CCCCC2)ccc1OC(F)F	inactive: -0.578%

Compound	activation
O=c1[nH]c2ccccc2n1C1CCN(C(c2cccc3ccccc23)c2nnnn2C2CCCC2)CC1 (stereo not drawn)	inactive: 1.01%
O=c1[nH]c2ccccc2n1C1CCN(C(c2ccccc2)c2nnnn2C2CCCCC2)CC1 (stereo not drawn)	inactive: -0.19%
COc1ccccc1C(=O)NCC1(N2CCOCC2)CCCCC1	inactive: -0.629%
CCOC(=O)N1CCC(Nc2ccc(F)cc2)CC1	inactive: 0.321%
COc1ccc(NC2CCN(CCc3ccccc3)CC2)c(OC)c1	inactive: 2.18%
CCCCOc1ccc(C(=O)NCC2(N3CCOCC3)CCCCC2)cc1	inactive: 1.1%
O=P1(N(CCCl)CCCl)SCCCS1	inactive: 1.09%
CCCCn1nnnc1C(c1cc2ccccc2o1)N1CCC(n2c(=O)[nH]c3ccccc32)CC1 (stereo not drawn)	inactive: 0.221%
O=C(NCC1(N2CCCCC2)CCCCC1)c1ccc(F)cc1	inactive: 0.697%
CC(C)(C)n1nnnc1C(c1ccccc1)N1CCC(n2c(=O)[nH]c3ccccc32)CC1 (stereo not drawn)	inactive: -0.599%
O=C(NCC1(N2CCOCC2)CCCCC1)c1ccc(Cl)cc1	inactive: 0.897%
CCOc1ccc(C)cc1CN(CCCl)CCCl	inactive: 0.968%
O=C(NCC1(N2CCOCC2)CCCCC1)c1cc(=O)[nH]c2ccccc12	inactive: -0.618%
COc1cc(C(=O)NCC2(N3CCCCC3)CCCCC2)ccc1OC(F)F	inactive: 0.311%
COc1ccc(NC2CCN(C(=O)OC(C)(C)C)CC2)cc1	inactive: -0.441%
CC(C)c1ccc(C(=O)NCC2(N3CCOCC3)CCCCC2)cc1	inactive: 0.138%
CN1CCN(CCOC(=O)C(O)(c2ccccc2)c2ccccc2)CC1	inactive: 0%
CCCCn1nnnc1C(c1cccc2ccccc12)N1CCC(n2c(=O)[nH]c3ccccc32)CC1 (stereo not drawn)	inactive: 2.52%
O=[N+]([O-])c1cc([N+](=O)[O-])c(NCC2CCS(=O)(=O)C2)c([N+](=O)[O-])c1 (stereo not drawn)	inactive: -0.782%
O=C(NCC1(N2CCCCC2)CCCCC1)c1cccc(C(F)(F)F)c1	inactive: 0.406%
CCCOc1cccc(C(=O)NCC2(N3CCOCC3)CCCCC2)c1	inactive: 1.61%
O=c1[nH]c2ccccc2n1C1CCN(C(c2ccccc2OC(F)(F)F)c2nnnn2C2CCCC2)CC1 (stereo not drawn)	inactive: 2.44%
N#CC1(Nc2ccccc2)CCN(CCc2ccccc2)CC1	inactive: -0.436%
CCN1CCC(Nc2ccc(Cl)cc2)CC1	inactive: -0.107%
CSc1ccc(C(=O)NCC2(N3CCOCC3)CCCCC2)cc1	inactive: -0.0358%

Compound	activation
CCOc1ccc(C(=O)NCC2(N3CCOCC3)CCCCC2)cc1	inactive: 0.897%
O=C(NCC1(N2CCCCC2)CCCCC1)c1cccc([N+](=O)[O-])c1	inactive: 1.86%
O=C(NCC1(N2CCCCC2)CCCCC1)c1ccc(OC(F)F)cc1	inactive: -0.127%
CC(C)(C)n1nnnc1C(c1ccccc1OC(F)(F)F)N1CCC(n2c(=O)[nH]c3ccccc32)CC1 (stereo not drawn)	inactive: -0.662%
COc1ccc(C(c2nnnn2C2CCCC2)N2CCC(n3c(=O)[nH]c4ccccc43)CC2)cc1 (stereo not drawn)	inactive: -0.441%
O=[N+]([O-])c1cc([N+](=O)[O-])c(Nc2ccc(Cl)cc2)c([N+](=O)[O-])c1	inactive: 6.4%
O=C(NCC1(N2CCOCC2)CCCCC1)c1ccccc1Br	inactive: 1.79%
CCCOc1ccc(C(=O)NCC2(N(C)C)CCCCC2)cc1OC	inactive: -0.222%
CCCCOc1ccccc1C(=O)NCC1(N2CCOCC2)CCCCC1	inactive: 2.77%
Cc1ccc(C(=O)NCC2(N(C)C)CCCCC2)o1	inactive: -0.399%
O=C(OC1CN2CCC1CC2)c1ccc([N+](=O)[O-])cc1 (stereo not drawn)	inactive: -1.12%
CN1CCC(Nc2cccc(F)c2)CC1	inactive: -0.0671%
O=C(NCC1(N2CCCCC2)CCCCC1)c1cncc(Br)c1	inactive: -0.583%
COc1ccc2c(c1O)-c1c(O)c(OC)cc3c1[C@H](C2)[N+](C)(C)CC3.O=[N+]([O-])c1cc([N+](=O)[O-])c([O-])c([N+](=O)[O-])c1[O-]	inactive: -0.305%
CCC(c1nnnn1C(C)(C)C)N1CCC(n2c(=O)[nH]c3ccccc32)CC1 (stereo not drawn)	inactive: -0.162%
O=C(NCC1(N2CCOCC2)CCCCC1)c1cc(F)c(F)cc1Cl	inactive: -1.08%
COc1cc(OC)c(C(=O)NCC2(N(C)C)CCCCC2)cc1OC	inactive: -0.38%
CCCCn1nnnc1C(c1ccnc2ccccc12)N1CCC(n2c(=O)[nH]c3ccccc32)CC1 (stereo not drawn)	inactive: -0.315%
CC(C)c1ccc(NC2CCN(C(=O)OC(C)(C)C)CC2)cc1	inactive: 26.3%
CCCCn1nnnc1C(c1ccccc1OC(F)(F)F)N1CCC(n2c(=O)[nH]c3ccccc32)CC1 (stereo not drawn)	inactive: -0.378%
CN(C)c1cccc(C(=O)NCC2(N3CCCCC3)CCCCC2)c1	inactive: -0.331%
O=[N+]([O-])c1cc([N+](=O)[O-])c(OC2CCCCC2O)c([N+](=O)[O-])c1 (stereo not drawn)	inactive: -0.969%
COc1ccc(CN(CCCl)CCCl)cc1Cl	inactive: 0.616%
